{
  "source": "patent US20110311550A1",
  "about": "“Agents for hcv treatment” (published 2011)",
  "key": {"[1]": {"target": "E1E2 (Env) of HCV isolate UKN5.15.7 (genotype 5) on HCVpp (hepatitis C virus, isolate UKN5.15.7)", "assay": "cell-based or functional assay"}, "[2]": {"target": "E1E2 (Env) of HCV isolate UKN2A1.2 (genotype 2a) on HCVpp (hepatitis C virus, isolate UKN2A1.2)", "assay": "cell-based or functional assay"}, "[3]": {"target": "E1E2 (Env) of HCV isolate H (genotype 1a) on HCVpp (hepatitis C virus, isolate H)", "assay": "cell-based or functional assay"}, "[4]": {"target": "E1E2 (Env) of HCV isolate UKN1B12.16 (genotype 1b) on HCVpp (hepatitis C virus, isolate UKN1B12.16)", "assay": "cell-based or functional assay"}, "[5]": {"target": "VSV (control pseudotype virus envelope)", "assay": "cell-based or functional assay"}, "[6]": {"target": "E1E2 (Env) of HCV isolate UKN4.21.16 (genotype 4) on HCVpp (hepatitis C virus, isolate UKN4.21.16)", "assay": "cell-based or functional assay"}, "[7]": {"target": "E1E2 (Env) of HCV isolate OH8 (genotype 1b) on HCVpp (hepatitis C virus, isolate OH8)", "assay": "cell-based or functional assay"}, "[8]": {"target": "E1E2 (Env) of HCV isolate J6 (genotype 2a) on HCVpp (hepatitis C virus, isolate J6) (UniProt P26660)", "assay": "cell-based or functional assay"}, "[9]": {"target": "E1E2 (Env) of HCV isolate UKN2B1.1 (genotype 2b) on HCVpp (hepatitis C virus, isolate UKN2B1.1)", "assay": "cell-based or functional assay"}, "[10]": {"target": "HCV E1E2 antigen, isolate UKN3A1.28c (hepatitis C virus, isolate UKN3A1.28c)", "assay": "ELISA, IgG (1 ug/mL, positive control) on E1E2 antigen"}, "[11]": {"target": "HCV E1E2 antigen, isolate UKN5.15.7 (hepatitis C virus, isolate UKN5.15.7)", "assay": "ELISA, IgG (1 ug/mL, positive control) on E1E2 antigen"}, "[12]": {"target": "HCV E1E2 antigen, isolate UKN1B12.16 (hepatitis C virus, isolate UKN1B12.16)", "assay": "ELISA, IgG (1 ug/mL, positive control) on E1E2 antigen"}, "[13]": {"target": "HCV E1E2 antigen, isolate OH8 (hepatitis C virus, isolate OH8)", "assay": "ELISA, IgG (1 ug/mL, positive control) on E1E2 antigen"}, "[14]": {"target": "HCV E1E2 antigen, isolate CH35 (hepatitis C virus, isolate CH35)", "assay": "ELISA, IgG (1 ug/mL, positive control) on E1E2 antigen"}, "[15]": {"target": "HCV E1E2 antigen, isolate UKN4.21.16 (hepatitis C virus, isolate UKN4.21.16)", "assay": "ELISA, IgG (1 ug/mL, positive control) on E1E2 antigen"}, "[16]": {"target": "HCV E1E2 antigen, isolate UKN2B1.1 (hepatitis C virus, isolate UKN2B1.1)", "assay": "ELISA, IgG (1 ug/mL, positive control) on E1E2 antigen"}, "[17]": {"target": "HCV E1E2 antigen, isolate UKN6.5.8 (hepatitis C virus, isolate UKN6.5.8)", "assay": "ELISA, IgG (1 ug/mL, positive control) on E1E2 antigen"}},
  "data": [
    {"substance": "MAb AR3A (antibody)", "values": [
      {"measurement": "Neutralizing activity (IC50) on HCVpp", "setting": "[1]", "value": 1, "unit": "µg/mL"},
      {"measurement": "Neutralizing activity (IC50) on HCVpp", "setting": "[2]", "value": 10, "unit": "µg/mL"},
      {"measurement": "Neutralizing activity (IC50) on HCVpp", "setting": "[3]", "value": 1, "unit": "µg/mL"},
      {"measurement": "Neutralizing activity (IC50) on HCVpp", "setting": "[4]", "value": 1, "unit": "µg/mL"},
      {"measurement": "Neutralizing activity (IC50) on control pseudotype virus", "setting": "[5]", "value": "> 50", "unit": "µg/mL"},
      {"measurement": "Neutralizing activity (IC50) on HCVpp", "setting": "[6]", "value": 1, "unit": "µg/mL"},
      {"measurement": "Neutralizing activity (IC50) on HCVpp", "setting": "[7]", "value": 5, "unit": "µg/mL"},
      {"measurement": "Neutralizing activity (IC50) on HCVpp", "setting": "[8]", "value": 10, "unit": "µg/mL"},
      {"measurement": "Neutralizing activity (IC50) on HCVpp", "setting": "[9]", "value": 10, "unit": "µg/mL"},
      {"measurement": "OD 450 nm", "setting": "[10]", "value": 1.31, "unit": "OD 450 nm"},
      {"measurement": "OD 450 nm", "setting": "[11]", "value": 0.87, "unit": "OD 450 nm"},
      {"measurement": "OD 450 nm", "setting": "[12]", "value": 1.81, "unit": "OD 450 nm"},
      {"measurement": "OD 450 nm", "setting": "[13]", "value": 1.83, "unit": "OD 450 nm"},
      {"measurement": "OD 450 nm", "setting": "[14]", "value": 1.48, "unit": "OD 450 nm"},
      {"measurement": "OD 450 nm", "setting": "[15]", "value": 1.77, "unit": "OD 450 nm"},
      {"measurement": "OD 450 nm", "setting": "[16]", "value": 1.09, "unit": "OD 450 nm"},
      {"measurement": "OD 450 nm", "setting": "[17]", "value": 1.33, "unit": "OD 450 nm"}
    ]}
  ]
}
